Pooled drug test results. Numbers come from NIAID ChemDB, via PubChem.

All rows: tests in culture; organism: HIV-1; read by: MTT; endpoint: EC50

ECn: concentration that inhibits the pathogen or its effect by n%. Rows are shuffled and stem from different studies. Blank or dashed fields: not listed here.

structure | mutations | strain | cell line | value
Cc1cc(C#N)cc(C)c1Oc1nc(Nc2ccc(C#N)cc2)nc(N)c1Br | NNRTI-resistant (RT Y181C) | IIIB | MT-4 | 0.0157 µM
Cc1cc(C#N)cc(C)c1Oc1ccc([N+](=O)[O-])c(NC2CCN(Cc3ccncc3)CC2)n1 | Resistant strain (K103N + Y181C) | IIIB | MT-4 | 7.7 µM
Cc1cc(C#Cc2cccc(N)c2)cc(C)c1Oc1ccnc(NC2CCN(Cc3ccc(C(N)=O)cc3)CC2)n1 | L100I | IIIB | MT-4 | >0.198 µM
Cc1c(CCC2CCCCC2)nc(SCC(=O)c2ccc(O)cc2)[nH]c1=O |  | IIIB | MT-4 | 0.24 µM
N#Cc1ccc(Nc2nc(Oc3c(Cl)cccc3Cl)ncc2[N+](=O)[O-])cc1 |  | RES056 | MT-4 | >207 µM
Cc1cc(C)c(Oc2ccc(N)c(NC3CCN(Cc4ccc(C(N)=O)cc4)CC3)n2)c(C)c1 |  | IIIB | MT-4 | 0.058 µg/mL
Cc1cc(C=O)cc(C)c1Oc1ncc(N)c(Nc2ccc(C#N)cc2)n1 |  | RES056 | MT-4 | 8.48 µM
Cc1c(C(C)CC2CCCCC2)nc(SCC(=O)c2ccc(O)cc2)[nH]c1=O |  | IIIB | MT-4 | 0.13 µM
Cc1ccnc2c1NC(=O)c1cccnc1N2C1CC1 | F227L V106A | IIIB | MT-4 | >15.9 µM
NCCCCN(Cc1nc2ccccc2[nH]1)C1CCCc2cccnc21 |  | NL4-3 | MT-4 | 0.026 µM
CC(C)(C)n1cc(C(=O)O)c(=O)c2cc(Br)c(Oc3ccnc(Nc4ccc(C#N)cc4)n3)cc21 |  | IIIB | MT-4 | 1.57 µM
CCc1c(C(C)C2CCCCC2)nc(SCC(=O)c2ccc(OC)cc2)[nH]c1=O |  | IIIB | MT-4 | 0.03 µM
N#Cc1ccc(Nc2nccc(Oc3ccc(C(=O)CC(=O)C(=O)O)cc3)n2)cc1 | F227L + V106A | IIIB | MT-4 | >48 µM
Cc1cc(C#N)cc(C)c1Oc1nc(Nc2ccc(C#N)cc2)nc(N)c1Br | K103N | IIIB | MT-4 | 0.0024 µM
COc1ccc(CN2CCC(N=C3C=C(Cc4ccc(Cl)cc4Cl)NS(=O)(=O)N3)CC2)cc1 |  | IIIB | MT-4 | 30.68 µM
CC(C)(C)n1cc(C(=O)O)c(=O)c2cc(I)c(Oc3ccnc(Nc4ccc(C#N)cc4)n3)cc21 | K103N Y181C NNRTI-resistant | IIIB | MT-4 | 4.73 µM
C#Cc1ccc(Nc2nccc(Oc3c(C)cc(-c4cn(Cc5ccc(S(N)(=O)=O)cc5)nn4)cc3C)n2)cc1 |  | IIIB | MT-4 | 0.029 µM
c1cn(CCCNCCc2ccc(CCNCCCn3ccnc3)cc2)cn1 |  |  | MT-4 | >328 µM
C#Cc1ccc(Nc2nccc(Oc3c(C)cc(-c4cn(Cc5ccccc5[N+](=O)[O-])nn4)cc3C)n2)cc1 | Y188L | IIIB | MT-4 | >7.22 µM
N#Cc1ccc(Nc2nc(Oc3c(Br)cc(Br)cc3Br)ncc2NC(=O)C(F)(F)F)cc1 |  | IIIB | MT-4 | 0.0346 µM
Cc1cc(C#Cc2cccnc2)cc(C)c1Oc1ccnc(Nc2ccc(C#N)cc2)n1 | RES056 | IIIB | MT-4 | 0.935 µM
COc1ccc2nc3cc(Cl)ccc3c(NCCCCCO)c2c1 |  |  | MT-4 | >2 µM
N#Cc1ccc(Nc2nc(Oc3ccc(-c4ccc(C#N)cc4)cc3[N+](=O)[O-])c3sccc3n2)cc1 |  | IIIB | MT-4 | 0.0078 µM
Cc1cc(C#N)cc(C)c1Oc1ccc(N)c(NC2CCN(Cc3ccncc3)CC2)n1 |  | IIIB | MT-4 | 0.056 µg/mL
N#Cc1ccc(Nc2nc(Oc3ccc(-c4ccc(C#N)cc4)cc3F)c3sccc3n2)cc1 |  | IIIB | MT-4 | 0.0475 µM
c1cc(CNCCCCN2CCCCC2)ccc1CNCCCCN1CCCCC1 |  |  | MT-4 | 0.72 µM
Cc1cc(C#Cc2cccc(N)c2)cc(C)c1Oc1ccnc(NC2CCN(Cc3ccc(C#N)cc3)CC2)n1 | F227L + V106A | IIIB | MT-4 | >0.261 µM
COc1ccc2nc3cc(Cl)ccc3c(N3CCC(O)CC3)c2c1 |  |  | MT-4 | >6.2 µM
Cc1cc(Br)cc(C)c1Oc1ncc(NC(=O)C(F)(F)F)c(Nc2ccc(C#N)cc2)n1 |  | RES056 | MT-4 | 10.62 µM
CCc1c(CCC2CCCCC2)nc(SCC(=O)c2ccc(O)cc2)[nH]c1=O |  | IIIB | MT-4 | 0.05 µM
Cc1cc(C#N)cc(C)c1Oc1nc(NC2CCN(Cc3cccc(C(N)=O)c3)CC2)nc2sccc12 | NNRTI-resistant (RT F227L V106A) | IIIB | MT-4 | 0.0252 µM
c1cc(CNCCN2CCCCC2)ccc1CNCCN1CCCCC1 |  |  | MT-4 | >32.6 µM
N#Cc1ccc(Nc2nccc(Oc3cccc(C(=O)CC(=O)C(=O)O)c3)n2)cc1 | L100I | IIIB | MT-4 | >10 µM
c1cc(CN2CCCNCCNCCCNCC2)ccc1CN1CCCNCCNCCCNCC1 |  | 39RW024 (subtype A) | MT-4 | 0.001 µg/mL
Cc1cc(-c2ccc(C#N)cc2)cc(C)c1Oc1nc(Nc2ccc(C#N)cc2)nc2ccsc12 | K103N | IIIB | MT-4 | 0.0338 µM
C#Cc1ccc(Nc2nccc(Oc3c(C)cc(-c4cn(CCc5ccccc5)nn4)cc3C)n2)cc1 | F227L and V106A | IIIB | MT-4 | >5.66 µM
COc1ccc(CN(CCN2CCCCC2)CC2CCCN(C3CCCC3)C2)cc1O |  | NL4-3 | MT-4 | 2.6 µM
Cc1ccnc2c1NC(=O)c1cccnc1N2C1CC1 | K103N Y181C NNRTI-resistant | IIIB | MT-4 | ≥11 µM
Cc1cc(C#N)cc(C)c1Oc1ccc(N)c(NC2CCN(Cc3ccc(S(N)(=O)=O)cc3)CC2)n1 | Resistant strain (K103N + Y181C) | IIIB | MT-4 | 0.99 µM
Cc1cc(C)c(CN2CCC(N=C3C=C(Cc4cccc5ccccc45)NS(=O)(=O)N3)CC2)c(C)c1 |  | IIIB | MT-4 | >70.22 µM
C#Cc1ccc(Nc2nccc(Oc3c(C)cc(-c4cn(-c5ccc(C(=O)O)cc5)nn4)cc3C)n2)cc1 |  | IIIB | MT-4 | 0.065 µM
CC1CCCCN1CCCNCc1ccc(CCNCCCN2CCOCC2)cc1 |  |  | MT-4 | 1.695 µM
COc1ccc(CN2CCC(N=C3C=C(Cc4cccc5ccccc45)NS(=O)(=O)N3)CC2)cc1 | RT-K103N Y181C | RES056 | MT-4 | >119 µM
c1cn(CCCNCc2ccc(CNCCCn3ccnc3)cc2)cn1 |  |  | MT-4 | >168.8 µM
O=S1(=O)NC(Cc2ccc(Cl)cc2Cl)=CC(=NC2CCN(Cc3ccc(F)cc3)CC2)N1 |  | IIIB | MT-4 | 31.66 µM
CC(=O)Nc1cnc(Oc2c(Cl)cc(Cl)cc2Cl)nc1Nc1ccc(C#N)cc1 |  | RES056 | MT-4 | >33.16 µM
COc1ccc2nc3cc(Cl)ccc3c(NC(CO)C(C)C)c2c1 |  |  | MT-4 | >0.7 µM
CCOC(=O)C1CN(Cc2ccc(S(N)(=O)=O)cc2)CCC1Nc1nc(Oc2c(C)cc(C#N)cc2C)c2sccc2n1 | NNRTI-resistant (RT Y181C) | IIIB | MT-4 | 0.186 µM
Nc1ccn([C@H]2CC[C@@H](CO)O2)c(=O)n1 |  | ROD | MT-4 | 0.104 µg/mL
Cc1cc(C#Cc2ccccn2)cc(C)c1Oc1ccnc(Nc2ccc(C#N)cc2)n1 | Y181C | IIIB | MT-4 | 1.231 µM
Cc1cc(C#N)cc(C)c1Oc1nc(NC2CCC(NCc3ccc(Br)cc3)CC2)nc2ccsc12 | NNRTI-resistant (RT Y181C) | IIIB | MT-4 | >3.45 µM
CC(=O)Nc1cnc(Oc2c(C)cc(C)cc2C)nc1Nc1ccc(C#N)cc1 |  | RES056 | MT-4 | >323 µM
CC(=O)c1ccc(CN2CCC(N=C3C=C(Cc4ccc(Cl)cc4Cl)NS(=O)(=O)N3)CC2)cc1 | RT-K103N Y181C | RES056 | MT-4 | >99.45 µM
CCn1cc(C(=O)O)c(=O)c2cc(I)c(Oc3ccnc(Nc4ccc(C#N)cc4)n3)cc21 | K103N Y181C NNRTI-resistant | IIIB | MT-4 | 2.87 µM
Cc1ccnc2c1NC(=O)c1cccnc1N2C1CC1 | Y181C | IIIB | MT-4 | 3.785 µM
Cc1ccnc2c1NC(=O)c1cccnc1N2C1CC1 |  | BCF06 (subtype O) | MT-4 | 0.09 µg/mL
Cc1c(C(C)CC2CCCCC2)nc(SCC(=O)c2ccccc2)[nH]c1=O |  | IIIB | MT-4 | 0.35 µM
CCOC(=O)C(=O)CC(=O)c1ccc(Oc2ccnc(Nc3ccc(C#N)cc3)n2)cc1 | F227L + V106A | IIIB | MT-4 | >22 µM
Cc1cc(C)cc(S(=O)(=O)c2c(C(=O)NC(C)C(N)=O)[nH]c3ccc(Cl)cc23)c1 | K103N |  | MT-4 | 0.014 µM
Cc1cn([C@H]2C[C@H](N=[N+]=[N-])[C@@H](CO)O2)c(=O)[nH]c1=O |  | RES056 | MT-4 | 0.0111 µM
CC(C)Nc1cccnc1N1CCN(C(=O)c2cc3cc(NS(C)(=O)=O)ccc3[nH]2)CC1 | L100I | IIIB | MT-4 | 3.472 µM
Nc1c2ccccc2nc2ccccc12 |  |  | MT-4 | >1.2 µM
Cc1cc(C#Cc2ccc(N)cc2)cc(C)c1Oc1ccnc(Nc2ccc(C#N)cc2)n1 | Y181C | IIIB | MT-4 | 0.227 µM
CC(=O)Nc1cnc(Oc2c(C)cc(C=O)cc2C)nc1Nc1ccc(C#N)cc1 |  | RES056 | MT-4 | >237 µM
Cc1cn([C@H]2C[C@H](N=[N+]=[N-])[C@@H](CO)O2)c(=O)[nH]c1=O |  |  | CEM + CEM TK- | >100 µM
Cc1cc(C#Cc2cccc(N)c2)cc(C)c1Oc1ccnc(NC2CCN(c3cccc(C(N)=O)c3)CC2)n1 | K103N | IIIB | MT-4 | 0.029 µM
COc1ccc2nc3cc(Cl)ccc3c(NN3CCN(C)CC3)c2c1 |  |  | MT-4 | >8 µM
c1cc(CN2CCCNCCNCCCNCC2)ccc1CN1CCCNCCNCCCNCC1 |  | NL4-3 | MT-4 | 0.02 µM
Cc1ccccc1CN1CCC(N=C2C=C(Cc3cccc4ccccc34)NS(=O)(=O)N2)CC1 | RT-K103N Y181C | RES056 | MT-4 | >107 µM

For reference, 6 entries again:

structure,mutations,strain,cell line,value
COc1ccc2nc3cc(Cl)ccc3c(NC(CO)C(C)C)c2c1,,,MT-4,>0.7 µM
Cc1cc(C#N)cc(C)c1Oc1ccc(N)c(NC2CCN(Cc3ccncc3)CC2)n1,,IIIB,MT-4,0.056 µg/mL
Cc1cn([C@H]2C[C@H](N=[N+]=[N-])[C@@H](CO)O2)c(=O)[nH]c1=O,,RES056,MT-4,0.0111 µM
CCn1cc(C(=O)O)c(=O)c2cc(I)c(Oc3ccnc(Nc4ccc(C#N)cc4)n3)cc21,K103N Y181C NNRTI-resistant,IIIB,MT-4,2.87 µM
Cc1ccnc2c1NC(=O)c1cccnc1N2C1CC1,Y181C,IIIB,MT-4,3.785 µM
C#Cc1ccc(Nc2nccc(Oc3c(C)cc(-c4cn(-c5ccc(C(=O)O)cc5)nn4)cc3C)n2)cc1,,IIIB,MT-4,0.065 µM